Results published in article PMC2946308, “Sialic acid transport and catabolism are cooperatively regulated by SiaR and CRP in nontypeable Haemophilus influenzae” (BMC Microbiology, 2010).
For at least one entry, the source does not settle the construct or the ends of the probe.

How the values were obtained:
CRP = CRP (UniProt P29281); assay: EMSA; details: 100 uM cAMP, 1 uM CRP; 150 mM KCl, 0.1 mM DTT, 0.1 mM EDTA, 10 mM Tris pH 7.4, 15 nM probe, room temperature 20 min; 6% gel, 0.5x TBE; recombinant protein; residues 1-224; protein details: C-terminal His tag (pET-24(+), pJJ276); label: none (SYBR Green stain); probe letters rebuilt from the primers and the genome
SiaR = assay: EMSA; details: 150 mM KCl, 0.1 mM DTT, 0.1 mM EDTA, 10 mM Tris pH 7.4, 15 nM probe, room temperature 20 min, 6% gel, 0.5x TBE, recombinant protein, label: none (SYBR Green stain), probe letters rebuilt from the primers and the genome

Measured: binding result

ACACCCCTCATTTAAATCTGAATAAATCACTTTAAAATTAATTTAATCCACATAAAACAATCTTTTATAAATTGTAATATGCTTATATTTTCATCATTTAACATTATTATATGAAAAAGAAATGCCATTTTAAAGAATATTTTTGAAGTGTTTTTTCACAAATGTGATCAACTTCTCATTTTTGAAATAAAACTCGTAAAACTATTTTAAATTTGTTTTTTTACTCTTAGAATTGCTCTCGAATCCTATTTTGGGGG (double strand) [nan-siaPT intergenic region probe]
binds: CRP | SiaR; 100 uM GlcN-6P, two-fold SiaR dilutions, slightly increased affinity | SiaR; no GlcN-6P, 1 uM SiaR
